A mixed list of measured activities; the numbers were collected in NIAID ChemDB.

Common to all: tests in culture; agent: Candida albicans; measure: MIC50

Conditions beyond the fields shown may differ between rows.

CN(C/C=C/C#CC(C)(C)C)Cc1cccc2ccccc12 ; strain or isolate: ATCC 10231 ; value: 0.5 µg/mL
CC(C)[C@]12CC(=O)[C@H](C)[C@H]1C2 ; strain or isolate: ATCC 90028 ; method: broth dilution ; value: 8000 µg/mL
O=C(N/N=C/c1ccc(-n2ccnc2)cc1)c1ccccc1 ; strain or isolate: ATCC 18804 ; method: broth dilution ; value: >861.1 µM
Nc1nc(=O)n([C@H]2CS[C@@H](CO)O2)cc1F ; strain or isolate: 183 strains ; value: 0.5 µg/mL
COC(=O)/C=C1/NN=C(c2ccccn2)N(c2ccccn2)C1=O ; strain or isolate: Clinical isolate ; method: agar diffusion ; value: 16 µg/mL
S=C(N/N=C/c1ccc(-n2ccnc2)cc1)Nc1ccccc1 ; strain or isolate: ATCC 18804 ; method: broth dilution ; value: >778 µM
COc1cc(OC)c(OC)cc1C=O ; strain or isolate: ATCC 90028 ; method: broth dilution ; value: 1000 µg/mL
C/C(=N\NC(=S)Nc1ccccc1)c1ccc(-n2ccnc2)cc1 ; strain or isolate: ATCC 18804 ; method: broth dilution ; value: >745 µM
C[C@H](Cc1ccc(O)c(O)c1)[C@@H](C)Cc1ccc(O)c(O)c1 ; strain or isolate: CCC 128-2000 ; method: broth dilution ; value: 125 µg/mL
CNC(=S)N/N=C(\C)c1ccc(-n2ccnc2)cc1 ; strain or isolate: ATCC 18804 ; method: broth dilution ; value: >915 µM
Cc1ccc(C(C)C)cc1 ; strain or isolate: ATCC 90028 ; method: broth dilution ; value: 2000 µg/mL
Nc1nc(=O)n([C@H]2CS[C@@H](CO)O2)cc1F ; strain or isolate: 4054 strains (fluconazole-susceptible) ; value: 0.5 µg/mL
O=C/C=C/c1ccccc1 ; strain or isolate: ATCC 90028 ; method: broth dilution ; value: 62.5 µg/mL
C[C@H]1[C@H](O)[C@@H](C)/C=C/C=C/C=C/C=C/C=C/C=C/C=C/[C@H](O[C@@H]2O[C@H](C)[C@@H](O)[C@H](N)[C@@H]2O)C[C@@H]2O[C@](O)(C[C@@H](O)C[C@@H](O)CC[C@H](O)[C@@H](O)C[C@@H](O)CC(=O)O[C@H]1C)C[C@H](O)[C@H]2C(=O)O ; strain or isolate: 183 strains ; value: 0.5 µg/mL
C[C@@H](c1nc(-c2ccc(C#N)cc2)cs1)[C@](O)(Cn1cncn1)c1ccc(F)cc1F ; strain or isolate: 85 strains (fluconazole-resistant) ; value: 0.25 µg/mL
C=C(C)C1CC=C(C)C(=O)C1 ; strain or isolate: ATCC 90028 ; method: broth dilution ; value: 8000 µg/mL
CC(=O)N1CCN(c2ccc(OC[C@H]3CO[C@](Cn4ccnc4)(c4ccc(Cl)cc4Cl)O3)cc2)CC1 ; strain or isolate: 106 isolates ; value: 16 µg/mL
O=C(N/N=C/c1ccc(-n2ccnc2)cc1)c1ccc(Cl)cc1 ; strain or isolate: ATCC 18804 ; method: broth dilution ; value: >769.8 µM
Clc1ccc(CSC(Cn2ccnc2)c2ccc(Cl)cc2Cl)cc1 ; strain or isolate: 106 isolates ; value: 0.5 µg/mL
NC(=S)N/N=C/c1ccc(-n2ccnc2)cc1 ; strain or isolate: ATCC 18804 ; method: broth dilution ; value: >510 µM
Clc1ccccc1C(c1ccccc1)(c1ccccc1)n1ccnc1 ; value: 3.13 µg/mL
C/C(=N\NC(=O)c1ccccc1)c1ccc(-n2ccnc2)cc1 ; strain or isolate: ATCC 18804 ; method: broth dilution ; value: >821.4 µM
Clc1ccc(C(Cn2ccnc2)OCc2ccc(Sc3ccccc3)cc2)c(Cl)c1 ; strain or isolate: 106 isolates ; value: 8 µg/mL

A second listing of 2 rows from above:

smiles | strain or isolate | method | value
O=C(N/N=C/c1ccc(-n2ccnc2)cc1)c1ccc(Cl)cc1 | ATCC 18804 | broth dilution | >769.8 µM
O=C/C=C/c1ccccc1 | ATCC 90028 | broth dilution | 62.5 µg/mL

MIC50, MIC90 and the like: level of inhibition, or share of isolates inhibited.